From PMC10783070 come the findings set out here.

In the series the target is T1, HilD (UniProt E1WAC0).
T1 sequence (looked up): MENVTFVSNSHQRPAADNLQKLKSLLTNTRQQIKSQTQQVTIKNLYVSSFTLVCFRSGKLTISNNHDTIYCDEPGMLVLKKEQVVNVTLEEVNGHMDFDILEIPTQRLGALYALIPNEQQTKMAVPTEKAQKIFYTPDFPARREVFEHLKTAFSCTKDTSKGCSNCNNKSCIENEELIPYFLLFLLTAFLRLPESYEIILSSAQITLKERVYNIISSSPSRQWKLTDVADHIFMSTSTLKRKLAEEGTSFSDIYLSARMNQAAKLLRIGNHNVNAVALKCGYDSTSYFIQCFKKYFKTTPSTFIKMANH
The series is described as follows: EMSA. The following applies: no fisetin, 2.5 ug HilD, 50 ng DNA in 20 uL; 20 mM HEPES pH 7.2, 20 mM KCl, 1 mM DTT, 0.04 mM EDTA, 0.01% Triton X-100, 1% glycerol, RT, 30 min ([…]; recombinant protein; residues 1-309; protein details: His6 (pET28a); label: none (SYBR Safe stain).

Tags and fusion partners may be left off the protein sequences shown.

Regarding “TGCAATGAGGCCAAGTTAAATATGTAAATATTTAGATGCCCGGCGCTGACTCTCTCTGCACCAGGATATACGGCAGCGTCCATTCGATAATCACAGTTAGTTATAACAATATTATTACCAACATGTCAGTTATTTAAAGCACAGGCATAAGCTAAATAATCAAATGTTAAAAACATATAAACCCGAGCCCGTAGAATATGACATTAAGCTCATAATAAAAGCTCAACCTGACCGTTAGTACTAACAGCAGAATTACTGAAACAGTAGATTCTATCCTAACGACTTGTATTAGTTATTATAACTTTTCACCCTGTAAGAGAATACACTATTATCATGCCACATT (double strand) [hilA promoter]”, the binding result was “binds”.
